{"sequences": {"note": "Protein sequences, listed by entry. Tags and fused reporters are not part of them. Chains listed by the source or under a name are the forms on record and can include a tag or linker. Residues count along the entry.", "UniProt Q8WQX5, 1-976 with tags or gaps A749G/DEL18-18/G858D/N24H/V111I/W59S": "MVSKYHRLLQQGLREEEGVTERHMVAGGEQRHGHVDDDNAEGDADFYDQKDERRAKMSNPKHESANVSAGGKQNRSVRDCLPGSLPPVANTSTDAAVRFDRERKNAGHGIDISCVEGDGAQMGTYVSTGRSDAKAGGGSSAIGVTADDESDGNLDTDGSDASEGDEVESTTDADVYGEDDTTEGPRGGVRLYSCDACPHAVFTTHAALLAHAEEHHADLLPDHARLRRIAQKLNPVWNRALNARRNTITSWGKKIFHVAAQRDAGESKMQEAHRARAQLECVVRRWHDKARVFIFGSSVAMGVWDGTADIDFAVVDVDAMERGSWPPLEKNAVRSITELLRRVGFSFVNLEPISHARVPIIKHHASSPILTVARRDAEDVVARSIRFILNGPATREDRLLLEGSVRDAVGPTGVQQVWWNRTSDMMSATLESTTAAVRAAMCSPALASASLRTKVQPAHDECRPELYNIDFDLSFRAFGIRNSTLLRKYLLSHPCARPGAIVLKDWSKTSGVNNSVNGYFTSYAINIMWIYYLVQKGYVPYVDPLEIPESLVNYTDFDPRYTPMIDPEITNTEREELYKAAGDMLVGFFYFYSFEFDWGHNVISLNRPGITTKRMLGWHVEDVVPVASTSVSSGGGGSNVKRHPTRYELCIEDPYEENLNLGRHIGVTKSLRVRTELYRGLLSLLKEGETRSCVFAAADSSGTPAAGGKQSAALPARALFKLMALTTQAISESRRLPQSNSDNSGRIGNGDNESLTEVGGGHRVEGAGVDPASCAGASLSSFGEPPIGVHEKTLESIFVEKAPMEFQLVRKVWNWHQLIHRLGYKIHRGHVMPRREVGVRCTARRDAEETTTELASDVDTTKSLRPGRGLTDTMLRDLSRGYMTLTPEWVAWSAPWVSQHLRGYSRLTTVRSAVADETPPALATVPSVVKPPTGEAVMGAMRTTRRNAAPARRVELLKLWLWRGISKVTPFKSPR"}, "source": "paper PMC5449093", "about": "“Selective inhibitors of trypanosomal uridylyl transferase RET1 establish druggability of RNA post-transcriptional modifications” (RNA Biology, 2016)", "key": {"RET1 [1]": {"target": "T1, RET1 (Trypanosoma brucei brucei, UniProt Q8WQX5, A749G/DEL18-18/G858D/N24H/V111I/W59S)", "assay": "Gel based assay for RET1 uridylylation activity (Sybr Gold)", "assay_type": "biochemical", "settings": "qualitative class: inactive, moderate or strong inhibitor; inhibitor 50 µM per method"}, "RET1 [2]": {"target": "T1, RET1", "assay": "Luciferase coupled PPi assay, 384 well format, RET1", "assay_type": "biochemical", "experimental": "Reactions were made up in Corning® 384 Well Low Flange White Flat Bottom Polystyrene TC-Treated Micro plates (Product #3570). RET1 enzyme was added at 0.1 μl (0.2 mgml^−1), UTP (Thermo Scientific R0471 100 mM) and RNA substrate final concentrations were equal to their Km: 50 μM and 20 nM respectively.[18] The volume was made up to 10 μl with buffer 6 (Tris pH 7.5 10 mM, KCl 10 mM, DTT 1 mM, MgCl2 3.2 mM) and the reaction was incubated 20 mins at 25°C, then heat inactivated at 65°C for 10 mins. Test compounds were added in 0.5 μl of DMSO stock solution. The positive control included of 0.5 μl of DMSO. After a 10 min cooling period, 5 μl of each of detection and conversion reagents from PPiLight™ Inorganic Pyrophosphate Assay Kit (Lonza, LT07-610) were added. Luminescence was read with a Pherastar Plus micro plate reader. IC50 determinations were carried out in triplicate using the luciferase assay protocol in a dilution series of 1 mM to 99 nM."}, "CID1 poly (U) polymerase": {"system": "CID1 poly (U) polymerase", "settings": "RET1 over CID1, calculated from IC50 values"}}, "note": "Where two headings read alike, the source gives them in different places."}
{"smiles": "CC1(COc2ccc(CC3SC(=O)NC3=O)cc2)CCCCC1", "note": "(stereo not shown)", "values": [{"measurement": "Gel Assay (qualitative activity in gel based assay)", "setting": "RET1 [1]", "result": "strong"}, {"measurement": "IC50", "setting": "RET1 [2]; read-out: RET1 IC50, PPi assay 384-well follow-up, UTP 50 µM, RNA 20 nM", "result": 500, "unit": "µM"}, {"measurement": "IC50", "setting": "RET1 [2]; read-out: RET1 Inhibition IC50, selectivity experiment, Table 2", "result": 500, "unit": "µM"}, {"measurement": "RET1 Selectivity (fold)", "setting": "CID1 poly (U) polymerase", "result": 2, "unit": "fold"}]}
